Results of unrelated studies side by side (data: NIAID ChemDB).

Shared fields: tests on isolated targets; species: HIV-1; target: Reverse transcriptase; read by: nucleotide incorporation / radiometric; measure: fold resistance

Lines come from different laboratories, so protocols vary. Fold resistance has wild type as its base. Two numbers with a dash give a range or band. An empty or dashed field is not shown.

SMILES	changes	strain or isolate	value
Cc1ccc2ccccc2c1-n1c(Br)nnc1SC(C)C(=O)Nc1ccc(S(N)(=O)=O)cc1Cl	RT-Y181C	-	>1
CCN1c2ncc(CCOc3ccc(CC(=O)O)c4ccccc34)cc2C(=O)N(C)c2ccc(Cl)nc21	RT-V106A	-	>10
CCc1ccc(-n2c(SCC(=O)Nc3ccc(C(=O)O)cc3C)nnc2C(F)F)c2ccccc12	RT-Y181C	-	>2
CCN1c2ncc(CCOc3ccc(CC(=O)O)c4ccccc34)cc2C(=O)N(C)c2ccc(C)nc21	RT-K103N Y181C	-	1–10
CCN1c2ncc(CCOc3ccc(-c4ccc(C)cc4)cc3C)cc2C(=O)N(C)c2cccnc21	RT-K103N Y181C	IIIB	1
CCN1c2ncc(CCOc3ccc(CCC(=O)O)c4c3CCCC4)cc2C(=O)N(C)c2cccnc21	RT-K103N Y181C	-	1–10
CCN1c2ncc(CCOc3ccc(-c4ccc(CC(=O)O)cc4O)cc3C)cc2C(=O)N(C)c2cccnc21	RT-K103N Y181C	IIIB	>1
CCN1c2ncc(CCOc3ccc4cc(CC(=O)NN)ccc4c3)cc2C(=O)N(C)c2cccnc21	RT-Y188L	-	1–10
CCN1c2ncc(CCOc3cccc4c3ccc[n+]4[O-])cc2C(=O)Nc2c(C)cc(Cl)nc21	RT-K103N V108I	-	8
CCN1c2ncc(CCOc3ccc(CC(=O)O)c4c3CCCC4)cc2C(=O)N(C)c2ccc(Cl)nc21	RT-K103N Y181C	-	1–10
CCc1ccc(-n2c(SCC(=O)Nc3ccc(S(N)(=O)=O)cc3C)nnc2C(F)F)c2ccccc12	RT-Y188L	-	>2
CCN1c2ncc(CCOc3ccc(-c4ccc(CCC(=O)O)o4)cc3C)cc2C(=O)N(C)c2cccnc21	RT-K103N Y181C	IIIB	>2
Cc1ccc(-n2c(SCC(=O)Nc3ccc(S(=O)(=O)NCCN4CCOCC4)cc3Cl)nnc2C(F)F)c2c1CCCC2	RT-Y181C	-	>1
CCN1c2ncc(CCOc3ccc(-c4nc(C(=O)O)cs4)cc3)cc2C(=O)N(C)c2cccnc21	RT-K103N Y181C	IIIB	>2
CCc1ccc(-n2c(SCC(=O)Nc3ccc(C(=O)O)cc3Cl)nnc2C(F)(F)F)c2ccccc12	RT-Y188L	-	>2
CCN1c2ncc(CCOc3ccc(-c4ccc(C(=O)O)s4)cc3C)cc2C(=O)N(C)c2cccnc21	RT-K103N Y181C	IIIB	1
Cc1cc(S(=O)(=O)O)ccc1NC(=O)CSc1nnc(C(F)F)n1-c1ccc(C)c2c1CCCC2	RT-Y188L	-	>2
CCN1c2ncc(CCOc3ccc(-c4cc(C(=O)O)on4)cc3C)cc2C(=O)N(C)c2cccnc21	RT-K103N Y181C	IIIB	1